Reference: patent publication US10987357B2, “Aerosolized fluoroquinolones and uses thereof” (Horizon Orphan, LLC, priority 2005, dated 2021)

Experiment: Oral taste test (20 uL on the tongue)
Format: in vivo, human
Conditions: for Oral taste, Initial Solution / Oral taste, Final Solution: 20 uL; for Oral taste, Initial Solution: 10 mg/mL, single volunteer; for Oral taste, Final Solution: after pH adjustment

For COc1c(N2CCNC(C)C2)c(F)cc2c(=O)c(C(=O)O)cn(C3CC3)c12 (stereo not drawn) [Gatifloxacin], the “Oral taste, Initial Solution” value was “moderate bitter unpleasant” and the “Oral taste, Final Solution” value was “strong bitter”.

For CO/N=C1\CN(c2nc3c(cc2F)c(=O)c(C(=O)O)cn3C2CC2)CC1CN (stereo not drawn) [Gemifloxacin], the “Oral taste, Initial Solution” value was “very bitter unpleasant taste”.

In the case of CCn1cc(C(=O)O)c(=O)c2cc(F)c(N3CCNC(C)C3)c(F)c21 (stereo not drawn) [Lomefloxacin], the “Oral taste, Initial Solution” value is reported as “moderate to strong” and the “oral taste testing” value (in vivo, po) is reported as “moderately strong almond-like taste”.

In the case of CN1CCN(c2c(F)cc3c(=O)c(C(=O)O)cn4c3c2OCN4C)CC1 [Marbofloxacin], the “Oral taste, Initial Solution” value is reported as “bitter unpleasant” and the “Oral taste, Final Solution” value is reported as “moderate to strong”.

For C[C@@H]1CN(c2c(F)c(F)c3c(=O)c(C(=O)O)cn(C4CC4)c3c2F)C[C@H](C)N1 [Orbifloxacin], the “Oral taste, Initial Solution” value was “strong unpleasant taste” and the “Oral taste, Final Solution” value was “very strong, very”.

In the case of CCn1cc(C(=O)O)c(=O)c2cc(F)c(N3CCN(C)CC3)cc21 [Pefloxacin], the “Oral taste, Initial Solution” value is reported as “strong bitter unpleasant”.

With C[C@@H]1CN(c2c(F)c(N)c3c(=O)c(C(=O)O)cn(C4CC4)c3c2F)C[C@H](C)N1 [Sparfloxacin] the “Oral taste, Initial Solution” value was “slight taste” and the “Oral taste, Final Solution” value was “strong almond-like”.

With NC1CCN(c2nc3c(cc2F)c(=O)c(C(=O)O)cn3-c2ccc(F)cc2F)C1 (stereo not drawn) [Tosufloxacin] the “Oral taste, Initial Solution” value was “mild to moderate” and the “Oral taste, Final Solution” value was “strong almond-like”.

With N[C@@H]1[C@H]2CN(c3nc4c(cc3F)c(=O)c(C(=O)O)cn4-c3ccc(F)cc3F)C[C@@H]12 [Trovafloxacin] the “Oral taste, Initial Solution” value was “very strong bitter”.
